Experimental data reported in patent EP1016405A2, “Arylating medicaments” (Radopath Pharmaceuticals International Limited, priority 1993, dated 1994).
“And” between values parts separate entries of the source, which are not always exact repeats. Equal values may be shown once. Read-outs that look alike come from different tables or passages of the source. Only a part of the results on these compounds is given; other tests are left out.

Assays:
HIV-1RF = test: Acute Infection Assay, HIV core antigen ELISA in C8166 cells; type: cell-based, human immunodeficiency virus
[1] = test system: Chronically infected cells (H9rf); test: Chronically Infected Cell Assay, HIV-1 antigen ELISA; type: cell-based; details: Table 11.2, Against chronically infected cells
uninfected cells = test: Toxicity Assay, 14C protein hydrolysate uptake, 72 hours; details: read-out: CC50 (Toxicity), Table 11.2, unit inferred
HIV-1IIIB = test: Acute infection assay against HIV-1IIIB; type: cell-based, human immunodeficiency virus
[2] = Table 11.2, Against HIV-1RF, single assays
[3] = read-out: IC50 (Antiviral), Table 11.2, Against HIV-1RF, single assays, no unit printed (tested 200µM to 0.2µM)
[4] = section Against HIV-1RF, single assays

| Structure (SMILES) | SI (Selectivity Index) (HIV-1RF; Table 11.2, Against HIV-1RF, Average) | SI (Selectivity Index) (HIV-1RF; [2]) | IC50 (HIV-1RF; read-out: IC50 (Antiviral), Table 11.2, Against HIV-1RF, Average, unit inferred) [nM] | IC50 (HIV-1RF; [3]) | SI (Selectivity Index) ([1]; Average) | SI (Selectivity Index) ([1]; single assays) | IC50 ([1]; read-out: IC50 (Antiviral), Average, unit inferred) [nM] | CC50 (uninfected cells; section Against HIV-1IIIB, Average) [nM] | CC50 (uninfected cells; section Against HIV-1IIIB, single assays) [nM] | CC50 (uninfected cells; section Against HIV-1RF, Average) [nM] | CC50 (uninfected cells; [4]) | SI (Selectivity Index) (HIV-1IIIB; Table 11.2, Average) | SI (Selectivity Index) (HIV-1IIIB; Table 11.2, single assays) | IC50 (HIV-1IIIB; read-out: IC50 (Antiviral), Table 11.2, Average, unit inferred) [nM] | IC50 (HIV-1IIIB; read-out: IC50 (Antiviral), Table 11.2, single assays, unit inferred) | IC50 (HIV-1RF; Table 10, 50% reduction in HIV core antigen levels) [nM] | TI (HIV-1RF; Table 10, therapeutic index, CD50 divided by IC50) |
| --- | --- | --- | --- | --- | --- | --- | --- | --- | --- | --- | --- | --- | --- | --- | --- | --- | --- |
| O=[N+]([O-])c1cc([N+](=O)[O-])c(Cl)c([N+](=O)[O-])c1 | 12 | 10 | 500 | 600 nM and 400 nM | 6 | 8 and 6 | 1500 | 7000 | 7000 | 6000 | 7000 nM and 5000 nM | 9 | 7 and 11.6 | 800 | 1000 nM and 600 nM | – | – |
| O=[N+]([O-])c1cc([N+](=O)[O-])c(O)c([N+](=O)[O-])c1 | – | 2 | – | 38000 nM | – | – | – | – | – | – | 67000 nM | – | – | – | – | < 200 | >475 |
